From publication PMC9312377
Where “and” joins values, the source holds several entries; their conditions need not be identical. Equal entries are not always repeated.

Experiments:
[1] = test system: recombinant B/Maryland/1/1959 virus E23K; details: E23K in recombinant B/Maryland/1/1959 virus; cited from earlier work
[2] = molecular target: recombinant A(H1N1)pdm09 PAN E23K (Influenza A virus, UniProt C3W5S0, DEL51-57/DEL61-72/E23K/E59G); test: Modified thermofluor assay, BXA-rPAN thermal stabilization; details: for SYPRO Orange signal: 37uM BXA

For `O=C1c2c(O)c(=O)ccn2N([C@@H]2c3ccccc3SCc3c2ccc(F)c3F)[C@@H]2COCCN12`, the EC50 increase [1] is listed as “no EC50 increase”, the “SYPRO Orange signal” value ([2]; 31 °C) is listed as 4802.38 RFU and 4597.62 RFU and 3153.29 RFU and the “SYPRO Orange signal” value ([2]; 32 °C) is listed as 5108.32 RFU and 4714.24 RFU and 3229.87 RFU. The “SYPRO Orange signal” value ([2]; 33 °C) was 5252.5 RFU and 4880.88 RFU and 3144.43 RFU, the “SYPRO Orange signal” value ([2]; 34 °C) was 5404.43 RFU and 5368.69 RFU and 3433.06 RFU and the “SYPRO Orange signal” value ([2]; 35 °C) was 5189.53 RFU and 5447.54 RFU and 3347.38 RFU. For the same compound, the “SYPRO Orange signal” value ([2]; 36 °C) was 5586.58 RFU and 5876.74 RFU and 3882.72 RFU, the “SYPRO Orange signal” value ([2]; 37 °C) was 5229.86 RFU and 5469.68 RFU and 4034.94 RFU and the “SYPRO Orange signal” value ([2]; 38 °C) was 5600.84 RFU and 5511.01 RFU and 4112.51 RFU. The “SYPRO Orange signal” value ([2]; 39 °C) was 5422.3 RFU and 5457.99 RFU and 4113.91 RFU, the “SYPRO Orange signal” value ([2]; 40 °C) was 4839.35 RFU and 5542.91 RFU and 4371.9 RFU and the “SYPRO Orange signal” value ([2]; 41 °C) was 5295.9 RFU and 6076.9 RFU and 4372.86 RFU. The “SYPRO Orange signal” value ([2]; 42 °C) was 4813.77 RFU and 5873.16 RFU and 4443.73 RFU, the “SYPRO Orange signal” value ([2]; 43 °C) was 4871.92 RFU and 5890.36 RFU and 4495.08 RFU and the “SYPRO Orange signal” value ([2]; 44 °C) was 4883.76 RFU and 6033.89 RFU and 4425.93 RFU. The “SYPRO Orange signal” value ([2]; 45 °C) was 5567.31 RFU and 6682.12 RFU and 4694.6 RFU, the “SYPRO Orange signal” value ([2]; 46 °C) was 5112.28 RFU and 6428.95 RFU and 4686.32 RFU and the “SYPRO Orange signal” value ([2]; 47 °C) was 5288.66 RFU and 6663.52 RFU and 4409.52 RFU. For the same compound, the “SYPRO Orange signal” value ([2]; 48 °C) was 5694.89 RFU and 7189.27 RFU and 4828.11 RFU, the “SYPRO Orange signal” value ([2]; 49 °C) was 5732.35 RFU and 7406.94 RFU and 4397.76 RFU and the “SYPRO Orange signal” value ([2]; 50 °C) was 5882.68 RFU and 7861.75 RFU and 4750.06 RFU. The “SYPRO Orange signal” value ([2]; 51 °C) was 5998.24 RFU and 7853.98 RFU and 4338.35 RFU, the “SYPRO Orange signal” value ([2]; 52 °C) was 6715.91 RFU and 8681.37 RFU and 4399.8 RFU and the “SYPRO Orange signal” value ([2]; 65 °C) was 9108.07 RFU and 13632.9 RFU and 7221.77 RFU. For the same compound, the “SYPRO Orange signal” value ([2]; 66 °C) was 9658.71 RFU and 13966.8 RFU and 7652.35 RFU, the “Tm (°C) with BXA” value ([2]; A(H1N1)pdm09 PAN E23K 2 μM, BXA 37 μM) was 74.0 ± 0.1 °C and 74 °C and the “ΔTm (°C)” value ([2]; A(H1N1)pdm09 PAN E23K, DMSO vs BXA 37 μM) was 23.0 ± 0.3 °C. For the same compound, the “SYPRO Orange signal” value ([2]; Panel A, E23K, 67 °C) was 10088.8 RFU and 14784 RFU and 8455.19 RFU, the “SYPRO Orange signal” value ([2]; Panel A, E23K, 68 °C) was 10830.8 RFU and 15248.5 RFU and 9746.09 RFU and the “SYPRO Orange signal” value ([2]; Panel A, E23K, 69 °C) was 12592.3 RFU and 16776.5 RFU and 11210 RFU. The “SYPRO Orange signal” value ([2]; Panel A, E23K, 70 °C) was 15410.9 RFU and 19342 RFU and 13502.7 RFU, the “SYPRO Orange signal” value ([2]; Panel A, E23K, 71 °C) was 20281.6 RFU and 23593.1 RFU and 18288.3 RFU and the “SYPRO Orange signal” value ([2]; Panel A, E23K, 72 °C) was 30042.8 RFU and 31928.9 RFU and 27392.5 RFU. For the same compound, the “SYPRO Orange signal” value ([2]; Panel A, E23K, 73 °C) was 47206 RFU and 47559.1 RFU and 43327.3 RFU, the “SYPRO Orange signal” value ([2]; Panel A, E23K, 74 °C) was 74720.4 RFU and 71161.1 RFU and 68706.6 RFU and the “SYPRO Orange signal” value ([2]; Panel A, E23K, 75 °C) was 110514 RFU and 102604 RFU and 102006 RFU. For the same compound, the “SYPRO Orange signal” value ([2]; Panel A, E23K, 76 °C) was 147350 RFU and 134812 RFU and 136774 RFU, the “SYPRO Orange signal” value ([2]; Panel A, E23K, 77 °C) was 174563 RFU and 158368 RFU and 162376 RFU and the “SYPRO Orange signal” value ([2]; Panel A, E23K, 78 °C) was 187002 RFU and 170633 RFU and 175725 RFU. For the same compound, the “SYPRO Orange signal” value ([2]; Panel A, E23K, 79 °C) was 189866 RFU and 173453 RFU and 178292 RFU, the “SYPRO Orange signal” value ([2]; Panel A, E23K, 80 °C) was 189065 RFU and 172956 RFU and 176966 RFU and the “SYPRO Orange signal” value ([2]; Panel A, E23K, 81 °C) was 187142 RFU and 171063 RFU and 174216 RFU. The “SYPRO Orange signal” value ([2]; Panel A, E23K, 82 °C) was 185522 RFU and 169458 RFU and 170822 RFU, the “SYPRO Orange signal” value ([2]; Panel A, E23K, 83 °C) was 183160 RFU and 166954 RFU and 167616 RFU and the “SYPRO Orange signal” value ([2]; Panel A, E23K, 84 °C) was 179838 RFU and 163102 RFU and 163949 RFU. The “SYPRO Orange signal” value ([2]; Panel A, E23K, 85 °C) was 174772 RFU and 157530 RFU and 159945 RFU, the “SYPRO Orange signal” value ([2]; Panel A, E23K, 86 °C) was 172451 RFU and 152920 RFU and 156234 RFU and the “SYPRO Orange signal” value ([2]; Panel A, E23K, 87 °C) was 169203 RFU and 149203 RFU and 151924 RFU. The “SYPRO Orange signal” value ([2]; Panel A, E23K, 88 °C) was 164340 RFU and 144984 RFU and 148070 RFU, the “SYPRO Orange signal” value ([2]; Panel A, E23K, 89 °C) was 158675 RFU and 141028 RFU and 143669 RFU and the “SYPRO Orange signal” value ([2]; Panel A, E23K, 90 °C) was 154483 RFU and 136330 RFU and 139550 RFU. For the same compound, the “SYPRO Orange signal” value ([2]; Panel A, E23K, 91 °C) was 148403 RFU and 130854 RFU and 135324 RFU, the “SYPRO Orange signal” value ([2]; Panel A, E23K, 92 °C) was 144125 RFU and 126719 RFU and 131240 RFU and the “SYPRO Orange signal” value ([2]; Panel A, E23K, 93 °C) was 139362 RFU and 121781 RFU and 127357 RFU. For the same compound, the “SYPRO Orange signal” value ([2]; Panel A, E23K, 94 °C) was 135546 RFU and 119063 RFU and 123079 RFU, the “SYPRO Orange signal” value ([2]; Panel A, E23K, 95 °C) was 131231 RFU and 114217 RFU and 119408 RFU and the “SYPRO Orange signal” value ([2]; Panel A, E23K, 96 °C) was 126749 RFU and 107435 RFU and 115890 RFU. The “SYPRO Orange signal” value ([2]; Panel A, E23K, 97 °C) was 122606 RFU and 103438 RFU and 110833 RFU, the “SYPRO Orange signal” value ([2]; Panel A, E23K, 98 °C) was 118644 RFU and 99944.6 RFU and 106727 RFU and the “SYPRO Orange signal” value ([2]; Panel A, E23K, 99 °C) was 114330 RFU and 95776.5 RFU and 100709 RFU.
